From patent US20150141324A1 (priority 2011, published 2015)

Test system: Escherichia coli O157:H7 Shiga toxin

C[C@H](NC(=O)[C@H](CCCNC(=N)N)NC(=O)CCCCCCCN)C(=O)N[C@@H](CCCNC(=N)N)C(=O)N[C@@H](CCCNC(=N)N)C(=O)N[C@@H](CCCNC(=N)N)C(=O)N[C@@H](CCCCN)C(=O)N[C@@H](CCCCN)C(=O)N[C@@H](CCCNC(=N)N)C(=O)N[C@H](C(N)=O)[C@@H](C)O [Aoc-RxxT]
IC50: > 1000 µM
